Source: paper PMC3445454, “Broad and Cross-Clade CD4^+ T-Cell Responses Elicited by a DNA Vaccine Encoding Highly Conserved and Promiscuous HIV-1 M-Group Consensus Peptides” (PLoS ONE, 2012)

Chains of the proteins cited; added tags and fusions are not shown.
UniProt P20036, whole entry A42M/L97S: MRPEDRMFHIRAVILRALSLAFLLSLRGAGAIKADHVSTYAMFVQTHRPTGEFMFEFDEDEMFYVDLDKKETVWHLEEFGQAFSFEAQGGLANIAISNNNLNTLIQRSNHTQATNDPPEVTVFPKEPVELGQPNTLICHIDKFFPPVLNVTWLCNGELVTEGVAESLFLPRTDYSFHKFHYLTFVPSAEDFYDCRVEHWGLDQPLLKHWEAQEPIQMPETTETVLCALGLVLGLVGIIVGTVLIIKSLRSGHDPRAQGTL

Columns and labels:
Assay in all cases: biochemical
[1] = biological target: HLA-DR DRB1*09:01 (Homo sapiens, UniProt P01903+P01911, A100R/A103E/D57H/D86V/F55Y/F60I/F76Y/I96F/K127E/L162R/M171V/P40D/Q125H/Q99R/R33Q/R42F/S133A/S66N/T210M/V115G/W38K/Y107V/Y59G/Y89S); assay type: binding
[2] = biological target: HLA-DR DRB1*10:01 (Homo sapiens, UniProt P01903+P01911, A100R/A169T/D57E/F55L/F60V/F69Y/F76Y/I96L/L162R/M171V/P40V/Q260P/Q39E/Q99R/R195Q/R42F/S149N/S66Y/T210M/V115G/V67A/W38E/Y59R/Y61H); assay type: binding
[3] = biological target: HLA-DR DRB4*01:01 (Homo sapiens, UniProt P01903+P13762, G164S); assay type: binding
[4] = biological target: T1, HLA-DP DPA1*02:01/DPB1*05:01 (Homo sapiens, UniProt P04440+P20036, A65V/A84E/F191V/F64L/G113D/G114E/K142R/L158P/M116V/M62Q/P115A/Q81R/R125K/T114A/T199I/T259P/V234M); assay type: binding
T1 sequence (P20036 29-260 A42M/M62Q/Q81R/T114A/K142R/L158P/F191V/T259P): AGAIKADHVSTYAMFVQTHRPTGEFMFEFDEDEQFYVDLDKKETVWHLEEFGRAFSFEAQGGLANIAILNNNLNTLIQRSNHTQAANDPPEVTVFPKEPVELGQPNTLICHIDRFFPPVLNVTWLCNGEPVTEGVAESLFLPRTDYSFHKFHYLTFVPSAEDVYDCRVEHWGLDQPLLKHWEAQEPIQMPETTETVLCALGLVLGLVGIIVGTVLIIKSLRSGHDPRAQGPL
T1 sequence (P04440 30-258 F64L/A65V/A84E/G113D/G114E/P115A/M116V/R125K/T199I/V234M): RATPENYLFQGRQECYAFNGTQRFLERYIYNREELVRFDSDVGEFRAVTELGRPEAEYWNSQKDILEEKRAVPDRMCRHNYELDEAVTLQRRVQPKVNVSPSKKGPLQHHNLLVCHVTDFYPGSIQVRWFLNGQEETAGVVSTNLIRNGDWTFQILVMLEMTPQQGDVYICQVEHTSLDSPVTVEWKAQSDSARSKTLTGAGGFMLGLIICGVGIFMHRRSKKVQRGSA

[5] = biological target: HLA-DQ DQA1*02:01/DQB1*02:02 (Homo sapiens, UniProt P01909+P01920, A45G/A70V/C70K/D167G/D89A/E106A/E183D/E77G/E98D/F237L/F77L/G63E/H199R/I129T/K197E/L107V/L178F/L74F/N214S/P84L/P87L/Q57E/Q76R/R75H/S185I/S97I/T103K/T109R/T172A/T60S/V73L/V78E/V99I/Y48F/Y58L/Y62S/Y69I/Y79F); assay type: binding
[6] = biological target: HLA-DQ DQA1*01:02/DQB1*06:02 (Homo sapiens, UniProt P01909+P01920, A157G/A45G/C70R/E118A/E183D/E77G/F83G/G63E/H151Q/H199R/H252R/H253Q/I129T/I235V/I88M/INS77G/K197Q/L117V/L119F/L178F/L71W/L74F/L85Q/L91A/L98M/N214S/P87R/Q116E/Q76K/R102G/R240Q/R75S/R78G/S102Y/S185I/S41F/S97I/T121G/T122I/T172A/T86R/V229M/V68A/V73E/Y34C/Y41F/Y58L); assay type: binding
[7] = biological target: HLA-DP DPA1*02:01/DPB1*01:01 (Homo sapiens, UniProt P04440+P20036, F191V/F38Y/F64Y/G113D/G114E/K142R/L158P/L37V/M105V/M116V/M62Q/P115A/Q81R/R125K/R223Q/T114A/T199I/T259P)
[8] = biological target: HLA-DP DPA1*03:01/DPB1*04:02 (Homo sapiens, UniProt P04440+P20036, A42M/A65V/A84D/A85E/L207M/L97S)
[9] = biological target: HLA-DQ DQA1*05:01/DQB1*02:01 (Homo sapiens, UniProt P01909+P01920, A45G/A70V/D89A/E106A/E77G/E98D/H199R/L107V/N214S/P84L/P87L/T103K/T109R/T172A/T60S/V78E/V99I/Y58L/Y62S/Y69I/Y79F)
[10] = biological target: HLA-DQ DQA1*01:02/DQB1*05:02 (Homo sapiens, UniProt P01909+P01920, A157S/A45G/A70V/C70R/D89S/E106S/E118A/E183D/E77G/F83G/G63E/H151Q/H199R/H252R/H253Q/I129T/I235V/I88M/INS77G/K197Q/L107V/L117V/L119Y/L178F/L71W/L74F/L85Q/L91A/L98M/M46L/N214S/P87R/Q116E/Q158H/Q256R/Q76K/R102G/R240Q/R75S/R78G/S102Y/S185I/S41F/S97I/T103A/T109R/T121G/T122I/T172A/T86R/V148I/V229M/V68A/V73E/Y34C/Y58G/Y62H)

SMILES	IC50 [1]	IC50 [2]	IC50 [3]	IC50 [4]	IC50 [5]	IC50 [6]	IC50 [7]	IC50 [8]	IC50 [9]	IC50 [10]
CC[C@H](C)[C@H](NC(=O)[C@H](CCC(=O)O)NC(=O)CN)C(=O)N[C@@H](Cc1ccc(O)cc1)C(=O)N[C@@H](CCCCN)C(=O)N[C@@H](CCCNC(=N)N)C(=O)N[C@@H](Cc1c[nH]c2ccccc12)C(=O)N[C@H](C(=O)N[C@H](C(=O)N[C@@H](CC(C)C)C(=O)NCC(=O)N[C@@H](CC(C)C)C(=O)N[C@@H](CC(N)=O)C(=O)N[C@@H](CCCCN)C(=O)N[C@H](C(=O)N[C@H](C(=O)N[C@@H](CCCNC(=N)N)C(=O)N[C@@H](CCSC)C(=O)N[C@@H](Cc1ccc(O)cc1)C(N)=O)C(C)C)[C@@H](C)CC)[C@@H](C)CC)[C@@H](C)CC [p24(127-145)]	151 nM	88 nM	172 nM	32 nM	24700 nM	473 nM	496 nM	134 nM	7800 nM	4990 nM
CC[C@H](C)[C@H](NC(=O)[C@@H](NC(=O)[C@H](CCC(=O)O)NC(=O)[C@@H]1CCCN1C(=O)[C@@H](N)CO)C(C)C)C(=O)N1CCC[C@H]1C(=O)N[C@@H](CCSC)C(=O)N[C@@H](Cc1ccccc1)C(=O)N[C@@H](CO)C(=O)N[C@@H](C)C(=O)N[C@@H](CC(C)C)C(=O)N[C@@H](CO)C(=O)N[C@@H](CCC(=O)O)C(=O)NCC(=O)N[C@@H](C)C(=O)N[C@H](C(N)=O)[C@@H](C)O [p24(33-48)]	74 nM	3.6 nM	58 nM	4370 nM	1690 nM	5960 nM	1920 nM	3950 nM	799 nM	2890 nM
CSCC[C@H](NC(=O)[C@@H]1CCCN1C(=O)[C@H](CCCNC(=N)N)NC(=O)[C@H](CC(C)C)NC(=O)[C@@H]1CCCN1C(=O)[C@@H](NC(=O)[C@H](CCC(N)=O)NC(=O)[C@@H]1CCCN1C(=O)[C@H](CCCNC(=N)N)NC(=O)[C@@H](NC(=O)[C@@H]1CCCN1C(=O)[C@H](Cc1ccccc1)NC(=O)CN)C(C)C)C(C)C)C(=O)N[C@H](C(=O)N[C@@H](Cc1ccc(O)cc1)C(=O)N[C@@H](CCCCN)C(=O)NCC(=O)N[C@@H](C)C(=O)N[C@@H](Cc1ccccc1)C(=O)N[C@@H](CC(=O)O)C(=O)N[C@@H](CC(C)C)C(N)=O)[C@@H](C)O [nef(67-87)]	205 nM	105 nM	22 nM	1870 nM	18800 nM	19900 nM	2010 nM	165 nM	6460 nM	27000 nM
